PubChem BioAssay AID504811 – Drosophila RNAi Screening Center | 2011
Only reagents picked out of a larger screen are listed. 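Only hits are listed, without non-hit dsRNAs or numeric scores; replicate 2 has entries for just two rows.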 Names joined by + are all predicted targets of the reagent. Not given: the amount of reagent, the time to read-out.

Screen: 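Fly genes affecting Listeria uptake, escape from the vacuole or multiplication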 (primary screen)
Cell system: Drosophila SL2 cells
Reagent: long dsRNA against Drosophila genes
Challenge: infection with GFP-expressing Listeria monocytogenes; dose and duration not given
Measurement: 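Cells infected with GFP-tagged Listeria were imaged, and bacterial fluorescence was judged visually against control wells as reduced, increased or clustered in dots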
Active means: 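Hit when the GFP pattern of infection differs visibly from controls, classed as down, up or spots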
Meaning of the calls: active = hit; inactive = not a hit

infection phenotype, replicate 1, by gene and reagent
RpS3 (Ribosomal protein S3): DRSC16838 stronger bacterial GFP per infected cell than controls active
Rpn6 (Regulatory particle non-ATPase 6): DRSC07541 less bacterial GFP than control wells (fewer infected cells or weaker signal per cell) active
Arpc1 (Actin-related protein 2/3 complex, subunit 1): DRSC03438 less bacterial GFP than control wells (fewer infected cells or weaker signal per cell) active
RpL26 (Ribosomal protein L26): DRSC10726 stronger bacterial GFP per infected cell than controls active
Rop (Ras opposite): DRSC08693 less bacterial GFP than control wells (fewer infected cells or weaker signal per cell) active
CkIalpha (Casein kinase Ialpha): DRSC20231 less bacterial GFP than control wells (fewer infected cells or weaker signal per cell) active
RpL10Ab (Ribosomal protein L10Ab): DRSC10798 stronger bacterial GFP per infected cell than controls active
Hsp70Bb + Hsp70Ba + Hsp70Bc + 1 more: DRSC21247 bacterial GFP seen as punctate clusters; pointing to bacteria failing to leave the vacuole active; DRSC21248 bacterial GFP seen as punctate clusters; pointing to bacteria failing to leave the vacuole active
RpS27A (Ribosomal protein S27A): DRSC03421 stronger bacterial GFP per infected cell than controls active
mTor (mechanistic Target of rapamycin): DRSC02811 less bacterial GFP than control wells (fewer infected cells or weaker signal per cell) active
VhaSFD (Vacuolar H[+]-ATPase SFD subunit): DRSC03471 less bacterial GFP than control wells (fewer infected cells or weaker signal per cell) active
Arp2 (Actin-related protein 2): DRSC19332 less bacterial GFP than control wells (fewer infected cells or weaker signal per cell) active
alphaTub85E (alpha-Tubulin at 85E): DRSC16899 less bacterial GFP than control wells (fewer infected cells or weaker signal per cell) active
Rab5: DRSC00777 less bacterial GFP than control wells (fewer infected cells or weaker signal per cell) active
Npc1a (Niemann-Pick type C-1a): DRSC03378 bacterial GFP seen as punctate clusters; pointing to bacteria failing to leave the vacuole active
Prosbeta1 (Proteasome beta1 subunit): DRSC07159 less bacterial GFP than control wells (fewer infected cells or weaker signal per cell) active
RpS16 (Ribosomal protein S16): DRSC04442 stronger bacterial GFP per infected cell than controls active
Diap1 (Death-associated inhibitor of apoptosis 1): DRSC11404 less bacterial GFP than control wells (fewer infected cells or weaker signal per cell) active
Ran: DRSC20364 less bacterial GFP than control wells (fewer infected cells or weaker signal per cell) active
Rpn1 (Regulatory particle non-ATPase 1): DRSC11274 less bacterial GFP than control wells (fewer infected cells or weaker signal per cell) active
Trs23 (TRAPP subunit 23): DRSC03190 less bacterial GFP than control wells (fewer infected cells or weaker signal per cell) active
crn (crooked neck): DRSC18755 less bacterial GFP than control wells (fewer infected cells or weaker signal per cell) active
Rpt2 (Regulatory particle triple-A ATPase 2): DRSC16799 less bacterial GFP than control wells (fewer infected cells or weaker signal per cell) active
Arp3 (Actin-related protein 3): DRSC09669 less bacterial GFP than control wells (fewer infected cells or weaker signal per cell) active
Arpc4 (Actin-related protein 2/3 complex, subunit 4): DRSC02917 less bacterial GFP than control wells (fewer infected cells or weaker signal per cell) active
RpS19a (Ribosomal protein S19a): DRSC20281 stronger bacterial GFP per infected cell than controls active
Sf3b2 (Splicing factor 3b subunit 2): DRSC00619 stronger bacterial GFP per infected cell than controls active
eater: DRSC15969 less bacterial GFP than control wells (fewer infected cells or weaker signal per cell) active
Rpt1 (Regulatory particle triple-A ATPase 1): DRSC07542 less bacterial GFP than control wells (fewer infected cells or weaker signal per cell) active
fand (fandango): DRSC06967 stronger bacterial GFP per infected cell than controls active
RpL7A (Ribosomal protein L7A): DRSC18709 stronger bacterial GFP per infected cell than controls active
CR11700 (retired record): DRSC17794 less bacterial GFP than control wells (fewer infected cells or weaker signal per cell) active
Polr2B (RNA polymerase II subunit B): DRSC16831 less bacterial GFP than control wells (fewer infected cells or weaker signal per cell) active
Slu7: DRSC14729 stronger bacterial GFP per infected cell than controls active
tum (tumbleweed): DRSC07575 less bacterial GFP than control wells (fewer infected cells or weaker signal per cell) active
His-Psi:CR31616 + His-Psi:CR31615: DRSC03760 stronger bacterial GFP per infected cell than controls active
RpS17 (Ribosomal protein S17): DRSC11271 stronger bacterial GFP per infected cell than controls active
Abi (Abelson interacting protein): DRSC14099 less bacterial GFP than control wells (fewer infected cells or weaker signal per cell) active
Rab10: DRSC20572 less bacterial GFP than control wells (fewer infected cells or weaker signal per cell) active
CG30349: DRSC06421 less bacterial GFP than control wells (fewer infected cells or weaker signal per cell) active
Bx42: DRSC17743 less bacterial GFP than control wells (fewer infected cells or weaker signal per cell) active
Rpt4 (Regulatory particle triple-A ATPase 4): DRSC18713 less bacterial GFP than control wells (fewer infected cells or weaker signal per cell) active
garz (gartenzwerg): DRSC07193 less bacterial GFP than control wells (fewer infected cells or weaker signal per cell) active
COX7C (Cytochrome c oxidase subunit 7C): DRSC06831 stronger bacterial GFP per infected cell than controls active
SmD3 (Small ribonucleoprotein particle protein SmD3): DRSC07553 stronger bacterial GFP per infected cell than controls active
CG1161: DRSC12180 stronger bacterial GFP per infected cell than controls active
RpL27A (Ribosomal protein L27A): DRSC00781 stronger bacterial GFP per infected cell than controls active
RpL28 + snoRNA:Or-CD12: DRSC08293 stronger bacterial GFP per infected cell than controls active
pim (pimples): DRSC03591 less bacterial GFP than control wells (fewer infected cells or weaker signal per cell) active
Dim1: DRSC00563 less bacterial GFP than control wells (fewer infected cells or weaker signal per cell) active
CG32280: DRSC08024 less bacterial GFP than control wells (fewer infected cells or weaker signal per cell) active
Sec6 (Secretory 6): DRSC06932 less bacterial GFP than control wells (fewer infected cells or weaker signal per cell) active
Polr2A (RNA polymerase II subunit A): DRSC20280 less bacterial GFP than control wells (fewer infected cells or weaker signal per cell) active
CG8435: DRSC07179 less bacterial GFP than control wells (fewer infected cells or weaker signal per cell) active
RpS4 (Ribosomal protein S4): DRSC11272 stronger bacterial GFP per infected cell than controls active
CG14712: DRSC14935 less bacterial GFP than control wells (fewer infected cells or weaker signal per cell) active
betaTub56D (beta-Tubulin at 56D): DRSC07583 less bacterial GFP than control wells (fewer infected cells or weaker signal per cell) active
zfh1 (Zn finger homeodomain 1): DRSC17098 less bacterial GFP than control wells (fewer infected cells or weaker signal per cell) active
RpL35 (Ribosomal protein L35): DRSC18347 stronger bacterial GFP per infected cell than controls active
PCNA (Proliferating cell nuclear antigen): DRSC07653 less bacterial GFP than control wells (fewer infected cells or weaker signal per cell) active
Pp4-19C (Protein phosphatase 19C): DRSC21251 less bacterial GFP than control wells (fewer infected cells or weaker signal per cell) active
Rpn7 (Regulatory particle non-ATPase 7): DRSC16841 less bacterial GFP than control wells (fewer infected cells or weaker signal per cell) active
geminin: DRSC04984 stronger bacterial GFP per infected cell than controls active
CG10660: DRSC09769 bacterial GFP seen as punctate clusters; pointing to bacteria failing to leave the vacuole active
His4:CG33883 + His4:CG33889 + His4:CG33899 + 20 more: DRSC21268 stronger bacterial GFP per infected cell than controls active
RpS24 (Ribosomal protein S24): DRSC04414 stronger bacterial GFP per infected cell than controls active
Syx7 (Syntaxin 7): DRSC11763 less bacterial GFP than control wells (fewer infected cells or weaker signal per cell) active
CG9616: DRSC16518 less bacterial GFP than control wells (fewer infected cells or weaker signal per cell) active
RpL9 (Ribosomal protein L9): DRSC03418 stronger bacterial GFP per infected cell than controls active
ZC3H3: DRSC10696 stronger bacterial GFP per infected cell than controls active
CG12343: DRSC06135 less bacterial GFP than control wells (fewer infected cells or weaker signal per cell) active
RpS10b (Ribosomal protein S10b): DRSC19561 stronger bacterial GFP per infected cell than controls active
mv (mauve): DRSC08208 bacterial GFP seen as punctate clusters; pointing to bacteria failing to leave the vacuole active; DRSC08570 bacterial GFP seen as punctate clusters; pointing to bacteria failing to leave the vacuole active
RpL35A (Ribosomal protein L35A): DRSC12302 stronger bacterial GFP per infected cell than controls active
14-3-3epsilon: DRSC16370 less bacterial GFP than control wells (fewer infected cells or weaker signal per cell) active
RpL23 (Ribosomal protein L23): DRSC04648 stronger bacterial GFP per infected cell than controls active
tsr (twinstar): DRSC04718 less bacterial GFP than control wells (fewer infected cells or weaker signal per cell) active
Arpc5 (Actin-related protein 2/3 complex, subunit 5): DRSC00730 less bacterial GFP than control wells (fewer infected cells or weaker signal per cell) active
TER94 (Transitional endoplasmic reticulum 94): DRSC07560 less bacterial GFP than control wells (fewer infected cells or weaker signal per cell) active
dmt (dalmatian): DRSC16932 stronger bacterial GFP per infected cell than controls active
His2B:CG33870 + His2B:CG33868 + His2B:CG33882 + 21 more: DRSC03757 stronger bacterial GFP per infected cell than controls active
eIF2gamma (eukaryotic translation initiation factor 2 subunit gamma): DRSC13081 stronger bacterial GFP per infected cell than controls active
Prosbeta5 (Proteasome beta5 subunit): DRSC07517 less bacterial GFP than control wells (fewer infected cells or weaker signal per cell) active
Hel25E (Helicase at 25E): DRSC03342 less bacterial GFP than control wells (fewer infected cells or weaker signal per cell) active
Taf4 (TBP-associated factor 4): DRSC11297 less bacterial GFP than control wells (fewer infected cells or weaker signal per cell) active
RpL37-1 (Ribosomal protein L37-1): DRSC20149 stronger bacterial GFP per infected cell than controls active
Rab35: DRSC20691 less bacterial GFP than control wells (fewer infected cells or weaker signal per cell) active
CG11583: DRSC08202 stronger bacterial GFP per infected cell than controls active
gammaCOP (Coat Protein (coatomer) gamma): DRSC16955 less bacterial GFP than control wells (fewer infected cells or weaker signal per cell) active
Sec3 (Secretory 3): DRSC10384 less bacterial GFP than control wells (fewer infected cells or weaker signal per cell) active
Cdc2rk (Cdc2-related kinase): DRSC07590 less bacterial GFP than control wells (fewer infected cells or weaker signal per cell) active
RpS11 (Ribosomal protein S11): DRSC07289 stronger bacterial GFP per infected cell than controls active
RpL36A (Ribosomal protein L36A): DRSC03055 stronger bacterial GFP per infected cell than controls active
RpL13 (Ribosomal protein L13): DRSC03416 stronger bacterial GFP per infected cell than controls active
dlg1 (discs large 1): DRSC20324 stronger bacterial GFP per infected cell than controls active
Sumo (Small ubiquitin like modifier): DRSC03611 less bacterial GFP than control wells (fewer infected cells or weaker signal per cell) active
Spc105R (Spc105-related): DRSC11663 less bacterial GFP than control wells (fewer infected cells or weaker signal per cell) active
cpa (capping protein alpha): DRSC04080 less bacterial GFP than control wells (fewer infected cells or weaker signal per cell) active
mad2: DRSC10274 stronger bacterial GFP per infected cell than controls active
thr (three rows): DRSC07706 less bacterial GFP than control wells (fewer infected cells or weaker signal per cell) active
RpL15 (Ribosomal protein L15): DRSC20963 stronger bacterial GFP per infected cell than controls active
CSN4 (COP9 signalosome subunit 4): DRSC07350 less bacterial GFP than control wells (fewer infected cells or weaker signal per cell) active
Sf3b1 (Splicing factor 3b subunit 1): DRSC00535 less bacterial GFP than control wells (fewer infected cells or weaker signal per cell) active
mts (microtubule star): DRSC03574 less bacterial GFP than control wells (fewer infected cells or weaker signal per cell) active
Prosbeta7 (Proteasome beta7 subunit): DRSC12186 less bacterial GFP than control wells (fewer infected cells or weaker signal per cell) active
Nep6 (Neprilysin 6): DRSC19877 less bacterial GFP than control wells (fewer infected cells or weaker signal per cell) active
Pstk + CG14210 + Tim9b: DRSC19566 bacterial GFP seen as punctate clusters; pointing to bacteria failing to leave the vacuole active
Brr2 (Brr2 U5 snRNP complex subunit): DRSC10559 less bacterial GFP than control wells (fewer infected cells or weaker signal per cell) active
RpL37A (Ribosomal protein L37A): DRSC02899 stronger bacterial GFP per infected cell than controls active
Rbp (RIM-binding protein): DRSC15724 less bacterial GFP than control wells (fewer infected cells or weaker signal per cell) active
Hsp70Aa + Hsp70Ab: DRSC21246 bacterial GFP seen as punctate clusters; pointing to bacteria failing to leave the vacuole active
Ocrl (Oculocerebrorenal syndrome of Lowe): DRSC18576 less bacterial GFP than control wells (fewer infected cells or weaker signal per cell) active
RpL18A (Ribosomal protein L18A): DRSC07538 stronger bacterial GFP per infected cell than controls active
Hsc70-3 (Heat shock protein 70 cognate 3): DRSC20253 stronger bacterial GFP per infected cell than controls active
lark: DRSC11362 less bacterial GFP than control wells (fewer infected cells or weaker signal per cell) active
lncRNA:sphinx + ATPsynF: DRSC17191 stronger bacterial GFP per infected cell than controls active
SREBP (Sterol regulatory element binding protein): DRSC11182 less bacterial GFP than control wells (fewer infected cells or weaker signal per cell) active
anne (anne boleyn): DRSC17103 stronger bacterial GFP per infected cell than controls active
Hmgcr (HMG Coenzyme A reductase): DRSC16704 less bacterial GFP than control wells (fewer infected cells or weaker signal per cell) active
RpS9 (Ribosomal protein S9): DRSC11273 stronger bacterial GFP per infected cell than controls active
fzy (fizzy): DRSC03534 stronger bacterial GFP per infected cell than controls active
Fad2: DRSC11165 less bacterial GFP than control wells (fewer infected cells or weaker signal per cell) active
nebu (nebulosa): DRSC09807 less bacterial GFP than control wells (fewer infected cells or weaker signal per cell) active
alc (alicorn): DRSC07062 stronger bacterial GFP per infected cell than controls active
hoip (hoi-polloi): DRSC03546 stronger bacterial GFP per infected cell than controls active
Prosalpha7 (Proteasome alpha7 subunit): DRSC07516 less bacterial GFP than control wells (fewer infected cells or weaker signal per cell) active
BckdhA (Branched chain keto acid dehydrogenase E1 subunit alpha): DRSC16395 less bacterial GFP than control wells (fewer infected cells or weaker signal per cell) active
Rpn10 (Regulatory particle non-ATPase 10): DRSC11876 less bacterial GFP than control wells (fewer infected cells or weaker signal per cell) active
SmF (Small ribonucleoprotein particle protein SmF): DRSC07397 stronger bacterial GFP per infected cell than controls active
RpL19 (Ribosomal protein L19): DRSC04649 stronger bacterial GFP per infected cell than controls active
Nup98-96 (Nucleoporin 98-96kD): DRSC14209 stronger bacterial GFP per infected cell than controls active
row (relative of woc): DRSC07077 less bacterial GFP than control wells (fewer infected cells or weaker signal per cell) active
Rab11: DRSC16809 less bacterial GFP than control wells (fewer infected cells or weaker signal per cell) active
Lam (Lamin): DRSC03359 less bacterial GFP than control wells (fewer infected cells or weaker signal per cell) active
Slh (SLY-1 homologous): DRSC00789 less bacterial GFP than control wells (fewer infected cells or weaker signal per cell) active
RpL5 (Ribosomal protein L5): DRSC03801 stronger bacterial GFP per infected cell than controls active
ACC (Acetyl-CoA carboxylase): DRSC07249 less bacterial GFP than control wells (fewer infected cells or weaker signal per cell) active

Part of the list above, reformatted.
gene | DRSC id | infection phenotype, replicate 1 | Call
RpL37-1 (Ribosomal protein L37-1) | DRSC20149 | stronger bacterial GFP per infected cell than controls | active
Rab35 | DRSC20691 | less bacterial GFP than control wells (fewer infected cells or weaker signal per cell) | active
CG11583 | DRSC08202 | stronger bacterial GFP per infected cell than controls | active
gammaCOP (Coat Protein (coatomer) gamma) | DRSC16955 | less bacterial GFP than control wells (fewer infected cells or weaker signal per cell) | active
Sec3 (Secretory 3) | DRSC10384 | less bacterial GFP than control wells (fewer infected cells or weaker signal per cell) | active
Cdc2rk (Cdc2-related kinase) | DRSC07590 | less bacterial GFP than control wells (fewer infected cells or weaker signal per cell) | active
RpS11 (Ribosomal protein S11) | DRSC07289 | stronger bacterial GFP per infected cell than controls | active
RpL36A (Ribosomal protein L36A) | DRSC03055 | stronger bacterial GFP per infected cell than controls | active
